Results of unrelated studies side by side (data: NIAID ChemDB).

Common to all: tests in culture; organism: HIV-1; cell line: MT-4; method: p24; endpoint: EC95

An empty or dashed field is not shown.

smiles | strain | mutations | result
NS(=O)(=O)c1ccc(NC(=O)COc2cc(Cl)cc(Oc3ccccc3)c2)c(Cl)c1 |  |  | <20 µM
O=C(NCc1ccc(F)cc1)c1nc2n(c(=O)c1O)CCNC2COCc1ccccc1 |  |  | <1 µM
N#Cc1cc(Cl)cc(Oc2cc(Cl)cc(OCC(=O)NCC3CCS(=O)(=O)C3)c2)c1 |  |  | <20 µM
CN1CCN(CCC2CN(Cc3ccc(F)cc3)C(=O)c3c(O)c(=O)n(C4CC4)c(=S)n32)CC1 |  |  | <10 µM
N#Cc1cc(Cl)cc(Oc2cc(F)c(Cl)c(OCc3nnc4n(O)cccc3-4)c2)c1 |  |  | <20 µM
CN(C)C(=O)C(=O)N1CCN2CCn3c(nc(C(=O)NCc4ccc(F)cc4)c(O)c3=O)C1C2 |  |  | <50 µM
N#Cc1cc(Cl)cc(Oc2cc(OCC(=O)Nc3ccncc3C(F)(F)F)ccc2Cl)c1 |  |  | <20 µM
CC(C)n1c(=O)c(O)c2n(c1=O)C(CCOCc1ccccc1)CN(Cc1ccc(F)cc1)C2=O |  |  | <10 µM
CC1(C)NCCn2c1nc(C(=O)NCc1ccc(F)cc1)c(O)c2=O |  |  | <50 µM
O=C1c2c(O)c(=O)n(CC3COCCN3Cc3ccccc3)c(=O)n2CCN1Cc1ccc(F)cc1 |  |  | <10 µM
NS(=O)(=O)c1ccc(NC(=O)CNc2cccc(Oc3ccccc3)c2)c(Cl)c1 |  |  | <20 µM
O=C1c2c(O)c(=O)nc(NCc3ccccc3)n2CCN1Cc1ccc(F)cc1 |  |  | <10 µM
CN1CCn2c(nc(C(=O)NCc3ccc(F)cc3)c(O)c2=O)C(N(Cc2ccccc2)C(=O)C(=O)N(C)C)C1 |  |  | <1 µM
N#Cc1cc(Cl)cc(Oc2cc(Cl)cc(OCC(=O)NC3CCS(=O)(=O)C3)c2)c1 |  |  | <20 µM
CC(C)n1c(=O)c(O)c2n(c1=O)C(CCN1CCc3ccccc3C1)CN(Cc1ccc(F)cc1)C2=O |  |  | <10 µM
COC(=O)N1CCn2c(nc(C(=O)NCc3ccc(F)cc3)c(O)c2=O)C1CN(C)C |  |  | <50 µM
CC(=O)N1CCC(n2c(=O)c(O)c3n(c2=O)CCN(Cc2ccc(F)cc2)C3=O)CC1 |  |  | <10 µM
CC1(C)c2nc(C(=O)NCc3ccc(F)cc3)c(O)c(=O)n2CCN1Cc1ccn[nH]1 |  |  | <1 µM
CC(C)n1c(=O)c(O)c2n(c1=O)CCN(Cc1ccccn1)C2=O |  |  | <10 µM
Cn1nnnc1CN1CCn2c(nc(C(=O)NCc3ccc(F)cc3)c(O)c2=O)C1(C)C |  |  | <1 µM
CN(C)c1ccc2c(COc3ccc(Cl)c(Oc4cc(Cl)cc(C#N)c4)c3)[nH]nc2n1 |  |  | <20 µM
CC1(C)c2nc(C(=O)NCc3ccc(F)cc3)c(O)c(=O)n2CCN1Cc1cn[nH]n1 |  |  | <1 µM
CC(C)[C@H](NC(=O)OCc1ccccn1)C(=O)N[C@@H](Cc1ccccc1)[C@@H](O)C[C@H](Cc1ccccc1)NC(=O)OCc1cccnc1 | NL4-3 | PR-L10R M46I L63P | 0.8 µM
CC(C)n1c(=O)c(O)c2n(c1=O)C(CCN1CCOCC1)CN(Cc1ccc(F)cc1)C2=O |  |  | <10 µM

Neighbouring rows are from separate reports. ECn is the concentration giving n% inhibition of infection, replication or growth.